Source: PubChem BioAssay AID1986 (Sanford-Burnham Center for Chemical Genomics, 2009)
The list shows a part of the results, in another mix than the full data. Activity calls are given as the source filed them. Cut-off read from the data, not from the text of the source: active = inhibition mostly above about 52% (no sharp cut-off); inactive = mostly below about 76%.

Test: inhibitors of HIV fusion peptide binding, primary screen, biochemical, uHTS, fluorescence dequenching (AID 1986)
Details: HIV Env-mediated cell-cell fusion, fluorescence reporter; at 20 µM; hits give high values

SMILES | inhibition
COc1ccc(OP(C)(=O)Nc2ccccc2Br)cc1 (centres undefined) | inactive: 3%
Cc1nc2ccc3ccccc3c2o1.O=[N+]([O-])c1cc([N+](=O)[O-])c(O)c([N+](=O)[O-])c1 | inactive: 21.9%
CP(=O)(OCCOc1ccccc1)OCCOc1ccccc1 | inactive: 0.5%
CP(=O)(Nc1ccc(Cl)cc1Cl)Oc1ccccc1 (centres undefined) | inactive: -1.9%
COc1ccccc1OP(C)(=O)Nc1ccc(Br)cc1 (centres undefined) | inactive: -2%
COc1ccc(OP(C)(=O)Nc2ccccn2)cc1 (centres undefined) | inactive: -0.4%
CN(C)CCOC(=O)C(O)(c1ccccc1)C1CCCC1 (centres undefined) | inactive: 2.3%
O=[N+]([O-])c1cc([N+](=O)[O-])c(Nc2ccccn2)c([N+](=O)[O-])c1 | inactive: -3%
Cc1c(NP(C)(=O)Oc2ccc(C(C)C)cc2)c(=O)n(-c2ccccc2)n1C (centres undefined) | inactive: 1.3%
CP(=O)(Nc1ccccn1)Oc1ccccc1 (centres undefined) | inactive: 2%
COc1ccccc1OP(C)(=O)Nc1ccc(C)cc1C (centres undefined) | inactive: -2.2%
CCc1ccc(OP(C)(=O)O)cc1 | inactive: -1%
CCN(CC)CC(O)COC(=O)C(O)(c1ccccc1)C1CCCCC1 (centres undefined) | inactive: 1.3%
COc1ccc(OP(C)(=O)Nc2ccc(Br)cc2)cc1 (centres undefined) | inactive: 0.4%
COc1ccccc1OP(C)(=O)Nc1c(C)n(C)n(-c2ccccc2)c1=O (centres undefined) | inactive: 0.1%
O=C(OCCCN1CCCC1)C(O)(c1ccccc1)C1CCCCC1 (centres undefined) | inactive: 0.6%
CP(=O)(Oc1ccccc1)N1CCOC1=O (centres undefined) | inactive: 0.8%
CCc1ccc(OP(C)(=O)Nc2cccnc2)cc1 (centres undefined) | inactive: 1.1%
CC(C)(C)c1ccc(OP(C)(=O)O)cc1 | inactive: 2%
COc1ccccc1OP(C)(=O)Nc1ccccc1Br (centres undefined) | inactive: 0.5%
CP(=O)(Nc1ccc(Cl)cc1)Oc1ccc(F)cc1 (centres undefined) | inactive: 0.8%
CN(C)C(=O)c1c([N+](=O)[O-])cc([N+](=O)[O-])cc1[N+](=O)[O-] | inactive: -1.4%
CCOC(=O)c1ccc(NP(C)(=O)Oc2ccc(Cl)cc2)cc1 (centres undefined) | inactive: 1.2%
CP(=O)(OC12CC3CC(CC(C3)C1)C2)OC12CC3CC(CC(C3)C1)C2 | inactive: 1.2%
